Measured values from several laboratories, pooled; numbers as filed in NIAID ChemDB.

Shared fields: tests in culture; organism: HIV-1

Lines come from different laboratories, so protocols vary.

| SMILES | method | read-out | cells | strain | changes | value |
|---|---|---|---|---|---|---|
| N#C/C(=C1\SC(=O)CN1c1ccc(Cl)cc1)c1nc2ccccc2o1 | cytopathic effect / XTT | EC50 | CEM |  |  | 35.7 µM |
| Fc1ccc(C(F)C(F)(F)c2nc3ccccc3o2)cc1 | RT activity | EC50 | CEM + CEM-SS | LAI |  | >100 µM |
| CCOCn1c(C(=O)c2cccc(C#N)c2)c(CC)c(=O)[nH]c1=O | MTT | EC50 | MT-4 | IIIB | EFV | >100 µM |
| O=S(=O)(O)O.OCC1OC(OC2C(O)C(CO)OC(OC3C(O)C(CO)OC(OC4C(O)C(CO)OC(OC5C(O)C(O)OC(CO)C5O)C4O)C3O)C2O)C(O)C(O)C1O | cytopathic effect / MTT | EC50 | MT-4 | IIIB |  | >300 µg/mL |
| Cc1cc(C)cc(Sc2c(N)c(=O)[nH]c3ccccc23)c1 | cytopathic effect / MTT | EC50 | CEM + CEM-SS | N119(RT-Y181C) | RT-Y181C | 2.2 µM |
| CCOCn1c(Cc2ccccc2)c(C(C)C)c(=O)[nH]c1=O | MTT | EC50 | MT-4 | IIIB | Y181C | 20 µM |
| N#Cc1cccc(-n2nnnc2SCC(=O)Nc2ccccc2[N+](=O)[O-])c1 | p24 | EC50 | MT-4 |  |  | <10 µM |
| CCc1c(C(=O)c2cccc(C#N)c2)n(Cc2cccc(C#N)c2)c(=O)[nH]c1=O | MTT | EC50 | MT-4 | IIIB | EFV | >100 µM |
| NC(=O)c1[nH]c2ccc(Cl)cc2c1S(=O)(=O)c1ccccc1 | p24 | EC50 | C8166 | IIIB WT |  | <0.0007 µM |
| CC(C)[C@H](NC(=O)OCc1ccccn1)C(=O)N[C@@H](Cc1ccccc1)[C@@H](O)C[C@H](Cc1ccccc1)NC(=O)OCc1cccnc1 | p24 | EC50 | MT-4 | NL4-3 | PR-M46I | <0.8 µM |
| O=c1[nH]c(=O)n([C@H]2C=C[C@@H](CO)O2)cc1Cl | cytopathic effect / trypan blue | EC50 | MT-4 | IIIB |  | >20 µM |
| O=C(c1cccnc1)C(F)(F)c1nc2ccccc2o1 | RT activity | EC50 | CEM + CEM-SS | LAI |  | >100 µM |
| Cc1cn([C@H]2C=C[C@@H](CO)O2)c(=O)[nH]c1=O | RT activity | EC50 | CEM + CEM-SS | IIIB |  | 0.059 µM |
| COc1ccnc2[nH]cc(C(=O)C(=O)N3CCN(C(=O)c4ccccc4)C[C@H]3C)c12 |  | EC50 | MT-2 | LAI |  | 0.00268 µM |
| COc1cccc2[nH]cc(C(=O)C(=O)N3CCN(C(=O)c4ccccc4)C[C@H]3C)c12 | virus yield | EC50 | MT-2/CXCR4 | A018 |  | 0.0236 µM |
| C=C1CN(S(=O)(=O)c2ccc(C)cc2)CCCN(Cc2ccccc2)CCCN(S(=O)(=O)c2ccc(C)cc2)C1 |  | EC50 | MT-2 | AZT-resistant |  | 2 µM |
| O=c1ccn([C@H]2C=C[C@@H](CO)O2)c(=O)n1CCOCCN1CCN(CCNC(=S)Nc2ccc(Br)cn2)CC1 | RT activity | EC50 | MT-4 | IIIB |  | >100 µM |
| C=C(C)C(=O)NC(=O)N[C@@H]1OC(CO[Si](C)(C)C(C)(C)C)C2(OS(=O)(=O)C=C2N)C1O[Si](C)(C)C(C)(C)C |  | EC50 | MT-4 |  |  | 0.6 µM |
| C=CCC(C(=O)O)c1c(-c2ccccc2)c2cc(Cl)ccc2[nH]c1=O | MTT | EC50 | MT-4 |  |  | 12.4 µM |
| COc1cnc(-n2cnc(C)n2)c2[nH]cc(C(=O)C(=O)N3CCN(C(=O)c4ccccc4)CC3)c12 | RT activity | EC50 | MT-2 | NL4-3 |  | 0.0022 µM |
| COC(c1ccc(-c2ccccc2)cc1)C(F)(F)c1nc2ccccc2o1 | RT activity | EC50 | CEM + CEM-SS | LAI |  | >100 µM |
| C=C1C(=O)O[C@H]2[C@@H]1[C@H](OC(=O)C(C)C)[C@@H]1[C@@](C)([C@@H](OC(C)=O)CC[C@]1(C)O)[C@H]2OC(C)=O | absorbance | EC50 | C8166 | IIIB |  | 7.06 µM |
| O=S(=O)(O)O.OCC1O[C@H](O)[C@@H](O)[C@H](O)C1O | cytopathic effect / MTT | EC50 | MT-4 | IIIB |  | >300 µg/mL |
| O=c1[nH]c(=O)n([C@@H]2C[C@H](CO)C[C@H]2CO)cc1I |  | EC50 | CEM |  |  | >100 µg/mL |
| CC(=O)c1ccc(C)cc1NC(C(N)=O)c1c(Cl)cccc1Cl | cytopathic effect / MTT | EC50 | MT-4 | MN |  | 0.006 µM |
| Cc1cn([C@@H]2O[C@H](C(COC(=O)c3ccccc3)OC(=O)c3ccccc3)C3(OS(=O)(=O)C=C3N)[C@H]2O[Si](C)(C)C(C)(C)C)c(=O)[nH]c1=O | cytopathic effect | EC50 | MT-4 | IIIB |  | >5.6 µM |
| CC#CCN1c2ccccc2C(=O)N(Cc2ccccc2)S1(=O)=O | p24 | EC50 | CEM + CEM-SS | IIIB |  | >10 µM |
| O=C(O)[C@H]1O[C@@H](Oc2cc3oc(-c4ccccc4)cc(=O)c3c(O)c2O)[C@H](O)[C@@H](O)[C@@H]1O |  | EC50 | HOS-CD5-CCR5 + HOS | ENV(BAL31) |  | 4 µM |
| O=C(CCSc1nnnn1-c1cccc2ccccc12)Nc1ccccc1Cl | p24 | EC95 | MT-4 |  |  | <10 µM |
| CCc1cn([C@@H]2C[C@H](F)[C@@H](CO)O2)c(=O)[nH]c1=O | p24 | EC50 | H9 | IIIB |  | 0.1 µM |
| N#CC1=C(N)N2C(=C(C#N)C1c1ccccc1)Oc1ccccc12 | cytopathic effect / XTT | EC50 | CEM |  |  | >200 µM |
| Cc1cc(C)cc(Sc2c(C)c[nH]c(=O)c2N)c1 | cytopathic effect / MTT | EC50 | CEM + CEM-SS | N119(RT-Y181C) | RT-Y181C | 2.1 µM |
| CCOC(=O)[C@H](C)NC(O)(Oc1ccccc1)Oc1nc(N(C)C)nc(C(C)c2c(F)cccc2F)c1C | MTT | EC50 | MT-4 |  | Y181C resistant | 1 µM |
| S=C(NCCN1CCNCC1)Nc1ccc(Br)cn1 | RT activity | EC50 | MT-4 | IIIB |  | >100 µM |
| C=C(C)C(=O)NC(=O)NC1OC(CO[Si](C)(C)C(C)(C)C)C2(OS(=O)(=O)C=C2N)C1O[Si](C)(C)C(C)(C)C |  | EC50 | MT-4 |  |  | 1.35 µM |
| C=C1C(=O)O[C@H]2[C@@H]1[C@H](OC(=O)C(C)C)[C@H]1[C@@](C)([C@@H](OC(C)=O)CC[C@]1(C)O)[C@H]2OC(C)=O | absorbance | EC50 | C8166 | IIIB |  | 1.58 µM |
| CCOC(=O)c1c([C@@H]2C[C@H]2c2ccccc2)n(C)c2ccc(O)cc12 | MTT | EC50 | MT-4 | NL4-3 |  | 3.58 µM |
| CCc1c[nH]c(=O)c(N)c1Sc1cc(C)cc(C)c1 | cytopathic effect / MTT | EC50 | CEM + CEM-SS | N119(RT-Y181C) | RT-Y181C | 41.5 µM |
| CN1C(c2ccccc2Cl)c2ccccc2S1(=O)=O | p24 / RT activity | EC50 |  |  |  | 0.093 µM |
| Cc1cn([C@@H]2O[C@H](C3CO[Si](C(C)C)(C(C)C)O[Si](C(C)C)(C(C)C)O3)C3(OS(=O)(=O)C=C3N)[C@H]2O)c(=O)[nH]c1=O | cytopathic effect | EC50 | MT-4 | IIIB |  | >6.3 µM |
| CC(C)Nc1ncnc2c1ncn2C1C[C@H](CO)[C@@H](CO)C1 |  | EC50 | CEM |  |  | >100 µg/mL |
| CC(C)OC(=O)OCOP(=O)(CO[C@H](C)Cn1cnc2c(N)ncnc21)OCOC(=O)OC(C)C | p24 / ELISA | EC50 | C8166 | RF | V82F/184V | 0.07534 µM |
| CN(c1nc(C(=O)NCc2ccc(F)cc2C(N)=O)c(O)c2ncccc12)S(C)(=O)=O | p24 | EC95 | MT-4 |  |  | <5 µM |
| O=C1c2ccccc2N(Cc2ccc(Cl)cc2)S(=O)(=O)N1Cc1ccc(Cl)cc1 | p24 | EC50 | MT-4 | IIIB |  | >125 µM |
| Cn1cc(NC(=O)Nc2cc(C(=O)Nc3cc(C(=O)Nc4ccc(S(=O)(=O)O)c5cc(S(=O)(=O)O)ccc45)n(C)c3)n(C)c2)cc1C(=O)Nc1cc(C(=O)Nc2ccc(S(=O)(=O)O)c3cc(S(=O)(=O)O)ccc23)n(C)c1 | cytopathic effect / XTT | EC50 | MT-4 | A17 | PYR-R | 4.5 µM |
| Cc1ccc(CSc2nnc(-c3c[nH]c4c(-c5ccccc5)cccc4c3=O)o2)cc1 | p24 / ELISA | EC50 | HeLa | NL4-3 |  | >100 µM |
| CNC(=O)c1cc(F)ccc1CNC(=O)c1nc(N(C)S(C)(=O)=O)c2cccnc2c1O | p24 | EC50 | MT-4 |  |  | <5 µM |
| O=C1c2ccccc2N(Cc2ccccc2-c2ccccc2)S(=O)(=O)N1Cc1ccccc1 | p24 | EC50 | MT-4 | IIIB |  | 12 µM |
| O=c1[nH]c(=O)n(C2C[C@H](CO)[C@@H](CO)C2)cc1I |  | EC50 | CEM |  |  | >100 µg/mL |
| Nc1ccn([C@H]2CC[C@@H](CO)O2)c(=O)n1 | cytopathic effect / trypan blue | EC50 | MT-4 | IIIB |  | 0.28 µM |
| CN1C(C)(c2cccc(O)c2)c2ccccc2S1(=O)=O | p24 / RT activity | EC50 |  |  |  | 30.7 µM |
| Cc1ccc(-n2nnnc2SCC(=O)Nc2ccccc2Cl)cc1 | p24 | EC50 | MT-4 |  |  | <10 µM |
| O=C1c2ccccc2N(COCc2ccccc2)S(=O)(=O)N1COCc1ccccc1 | p24 | EC50 | MT-4 | IIIB |  | >44 µM |
| Cc1cc(C)c(-n2nnnc2SCC(=O)Nc2ccc(F)cc2F)c(C)c1 | p24 | EC50 | MT-4 |  |  | <10 µM |
| Cc1cn([C@H]2C=C[C@@H](CO)O2)c(=O)n(CCCCCCN2CCN(CCNC(=S)Nc3ccc(Br)cn3)CC2)c1=O | RT activity | EC50 | MT-4 | IIIB |  | >100 µM |
| NC(=O)c1cc(F)ccc1CNC(=O)c1nc(N2CCCCS2(=O)=O)c2cccnc2c1O | p24 | EC50 | MT-4 |  |  | <5 µM |
| Cc1cccc(Sc2c(C)c[nH]c(=O)c2N)c1 | cytopathic effect / MTT | EC50 | CEM + CEM-SS | N119(RT-Y181C) | RT-Y181C | >100 µM |
| N#CC(C(=S)NCc1ccccc1)c1nc2ccccc2o1 | cytopathic effect / XTT | EC50 | CEM |  |  | 32.9 µM |
| Cc1ccccc1CSc1nnc(-c2c[nH]c3c(-c4ccccc4)cccc3c2=O)o1 | p24 / ELISA | EC50 | HeLa | NL4-3 |  | 60 µM |
| CC(=O)c1ccccc1N[C@H](C(N)=O)c1c(Cl)cccc1Cl | cytopathic effect / MTT | EC50 | MT-4 | IIIB |  | 0.02 µM |
| O=C(OC(c1cccnc1)C(F)(F)c1nc2ccccc2o1)c1cccc(C(F)(F)F)c1 | RT activity | EC50 | CEM + CEM-SS | LAI |  | >100 µM |
| O=c1ccn([C@H]2C=C[C@@H](CO)O2)c(=O)n1CCCCCCN1CCN(CCNC(=S)Nc2ccc(Br)cn2)CC1 | RT activity | EC50 | CEM + CEM-SS | IIIB |  | 15 µM |
| O=C1c2ccccc2N(Cc2cccc3ccccc23)S(=O)(=O)N1Cc1ccccc1 | p24 | EC50 | MT-4 | IIIB |  | >125 µM |
| CNC(=O)c1cc(F)ccc1CNC(=O)c1nc(N2CCCCS2(=O)=O)c2cccnc2c1O | p24 | EC95 | MT-4 |  |  | <5 µM |
| CCCCNC(=S)C(C#N)c1nc2ccccc2o1 | cytopathic effect / XTT | EC50 | CEM |  |  | 32.6 µM |
| CN1C(c2ccc(Br)cc2)c2ccccc2S1(=O)=O | p24 / RT activity | EC50 |  |  |  | 11.02 µM |
| N#C/C(=C1\SC(=O)CN1c1ccccc1)c1nc2ccccc2o1 | cytopathic effect / XTT | EC50 | CEM |  |  | >200 µM |
| CC(C)[C@H](NC(=O)[C@H](Cc1ccccc1)C[C@H](O)[C@H](Cc1ccccc1)NC(=O)OC(C)(C)C)C(=O)N[C@@H](Cc1ccccc1)C(=O)N1CCOCC1 | RT activity | EC50 | MT-2 | pLAI |  | 0.02 µM |
| CN1C(c2c(F)c(F)c(F)c(F)c2F)c2ccccc2S1(=O)=O | p24 / RT activity | EC50 |  |  |  | 40.2 µM |

Repeating the first 7 entries:

SMILES,method,read-out,cells,strain,changes,value
N#C/C(=C1\SC(=O)CN1c1ccc(Cl)cc1)c1nc2ccccc2o1,cytopathic effect / XTT,EC50,CEM,,,35.7 µM
Fc1ccc(C(F)C(F)(F)c2nc3ccccc3o2)cc1,RT activity,EC50,CEM + CEM-SS,LAI,,>100 µM
CCOCn1c(C(=O)c2cccc(C#N)c2)c(CC)c(=O)[nH]c1=O,MTT,EC50,MT-4,IIIB,EFV,>100 µM
O=S(=O)(O)O.OCC1OC(OC2C(O)C(CO)OC(OC3C(O)C(CO)OC(OC4C(O)C(CO)OC(OC5C(O)C(O)OC(CO)C5O)C4O)C3O)C2O)C(O)C(O)C1O,cytopathic effect / MTT,EC50,MT-4,IIIB,,>300 µg/mL
Cc1cc(C)cc(Sc2c(N)c(=O)[nH]c3ccccc23)c1,cytopathic effect / MTT,EC50,CEM + CEM-SS,N119(RT-Y181C),RT-Y181C,2.2 µM
CCOCn1c(Cc2ccccc2)c(C(C)C)c(=O)[nH]c1=O,MTT,EC50,MT-4,IIIB,Y181C,20 µM
N#Cc1cccc(-n2nnnc2SCC(=O)Nc2ccccc2[N+](=O)[O-])c1,p24,EC50,MT-4,,,<10 µM

Blank or dashed fields: not listed here. ECn is the concentration giving n% inhibition of infection, replication or growth.